PubChem BioAssay AID624099, ICCB-Longwood | 2012
Test: 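Knock-downs relieving repression by E2 of an HPV18 LCR luciferase reporter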 (primary screen). Cells: human C33A cervical carcinoma cells (HPV-negative) stably expressing BPV1 E2 and an HPV18 LCR luciferase reporter. Reagents: siRNA pool against human genes, 40 nM. Time to read-out: 72 h. Read-out: 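Per-well luciferase luminescence, z-scored on each plate against the plate mean and SD with control wells left out, then averaged across three replicate plates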. Reading the numbers: mean z-score and z-score: higher = stronger reporter signal, weaker E2 silencing. Hit rule: 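Mean z ≥ 2 together with z ≥ 2 in two or more of the three replicates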.
Here is one part, drawn at random, of about 21,000 deposited reagents. 497 of them (2.4%) count as active. 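Higher z means weaker E2 silencing; only reporter increases were scored, and knock-downs that hurt cell survival may mask genuine repressor factors.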 Reagents against one gene are numbered here.

gene knocked down	pool no.	mean z-score	z-score, replicate A	z-score, replicate B	z-score, replicate C	Outcome
IL11RA	1	0.47	0.7	0.38	0.34	inactive
VPS37C	1	-0.45	-0.44	-0.65	-0.26	inactive
PELI2	1	-0.46	-0.8	0	-0.59	inactive
FAM180A	1	-1.43	-1.56	-1.7	-1.03	inactive
FAM110D	1	-0.89	-0.92	-1.01	-0.75	inactive
CLN6	1	-0.56	-0.52	-0.68	-0.47	inactive
CD86	1	0.52	0.61	0.39	0.54	inactive
RTL6	1	1.99	1.25	2.83	1.88	inactive
FRMD4A	1	0.22	0	0.25	0.4	inactive
MICAL2	1	-0.14	-0.24	-0.17	-0.02	inactive
MICAL2	2	1.52	1.76	1.25	1.55	inactive
SPHKAP	1	-0.59	-0.96	-0.4	-0.4	inactive
DCD	1	-0.96	-1.02	-1.06	-0.79	inactive
FABP6	1	1.93	2.11	1.95	1.72	inactive
LEP	1	-0.19	-0.38	-0.04	-0.13	inactive
LOC155060	1	0.38	0.57	0.23	0.35	inactive
ZBTB43	1	0.49	0.89	0.07	0.51	inactive
MYRF	1	-0.8	-0.61	-0.89	-0.9	inactive
C8A	1	0.36	0.36	0.49	0.21	inactive
GSPT1	1	-2.27	-2.28	-2.15	-2.39	inactive
TEX26	1	-0.42	-0.67	0.07	-0.68	inactive
LOC138729 (retired record)	1	-0.46	-0.22	-0.72	-0.44	inactive
H2AC12	1	-0.31	-0.26	-0.32	-0.35	inactive
RUMY4	1	-0.6	-0.44	-0.57	-0.8	inactive
SLC34A2	1	1.22	1.51	0.96	1.2	inactive
LEPROTL1	1	1.14	0.86	1.31	1.25	inactive
LOC400701 (retired record)	1	1.19	1.38	0.86	1.33	inactive
ANKLE1	1	-1.73	-1.74	-1.61	-1.83	inactive
ANKRD30A	1	-0.78	-1.14	-0.2	-1	inactive
LOC389683 (retired record)	1	-0.01	-0.06	-0.09	0.14	inactive
ZNG1A	1	-0.22	-0.8	0.13	0.01	inactive
AGO4	1	-0.73	-0.77	-0.84	-0.59	inactive
CFAP119	1	-0.62	-0.6	-0.68	-0.57	inactive
PTCD3	1	-0.26	-0.26	0	-0.53	inactive
ANKRD36B	1	-0.9	-0.92	-0.55	-1.22	inactive
GRAMD1C	1	-0.47	-0.75	-0.43	-0.25	inactive
SLC20A2	1	-0.61	-0.45	-0.54	-0.84	inactive
PIK3R2	1	-0.99	-0.87	-0.87	-1.23	inactive
JMJD7-PLA2G4B	1	-0.37	-0.45	-0.23	-0.42	inactive
PLA2G3	1	-1.04	-0.91	-0.93	-1.27	inactive
PARP4	1	-0.76	-0.5	-0.83	-0.94	inactive
TEX29	1	-1.69	-0.96	-2.11	-2.01	inactive
DHRS2	1	1.11	0.81	1.48	1.05	inactive
SPATA22	1	0.86	0.67	0.93	0.97	inactive
CHRM4	1	3.9	4.28	4.01	3.42	active
SMG8	1	0.29	0.34	0.01	0.52	inactive
TK1	1	0.04	0.12	-0.09	0.09	inactive
PDPR	1	-1.96	-2.22	-2.05	-1.6	inactive
DDX25	1	-1.02	-0.58	-1.15	-1.33	inactive
CSPG5	1	0.3	0.48	0.14	0.28	inactive
KAT5	1	1.64	2.01	1.42	1.49	inactive
LOC401396 (retired record)	1	0.23	0.46	0.17	0.05	inactive
LOC401396 (retired record)	2	0.14	0.13	-0.06	0.34	inactive
UBE2C	1	0.27	0.22	0.3	0.29	inactive
HS3ST2	1	-0.01	-0.03	-0.26	0.27	inactive
ZSWIM6	1	-0.81	-0.63	-0.81	-0.99	inactive
CLDN14	1	-0.57	-0.82	-0.5	-0.4	inactive

Sorted by “z-score, replicate C” (descending): some entries from above
gene knocked down	pool no.	mean z-score	z-score, replicate A	z-score, replicate B	z-score, replicate C	Outcome
CHRM4	1	3.9	4.28	4.01	3.42	active
SMG8	1	0.29	0.34	0.01	0.52	inactive
TK1	1	0.04	0.12	-0.09	0.09	inactive
